A mixed list of measured activities; the numbers were collected in NIAID ChemDB.

Common to all: enzyme or target tests

Lines come from different laboratories, so protocols vary.

smiles | read-out | dose | read by | strain or isolate | target | organism | result
O=c1[nH]c2c(Cl)cc(Cl)cc2c(=O)n1O | IC50 | - | - | - | RNA-dependent RNA polymerase | Influenza A virus | 50 µM
O=C(O)C(=O)CC(=O)C1(Cc2ccc(Cl)cc2)CCCN(Cc2ccccc2)C1 | IC50 | - | - | - | Endonuclease | Influenza B virus | 1.8 µM
CC(C)(C)OC(=O)N1C[C@H](N)[C@H](C(=O)O)C1 | Ki | - | - | Memphis/3/89 | Neuraminidase | Influenza B virus | 2500 µM
COCON1C(=O)C(CC(C)C)=N/C(=C\C(C)C)C1=O | IC50 | - | - | A/PR/8/34 | Transcriptase | Influenza A virus | >355 µM
CCN(CC)C(=O)[C@@H]1C=C(C(=O)O)OC[C@H]1NC(C)=O | IC50 | - | fluorescence | AICHI N2 | Influenza virus sialidases | Influenza A virus | 1.5 µM
COC(=O)C1=C[C@H](O)[C@@H](NC(=O)O)[C@H]([C@@H](O)[C@@H](O)CC#N)O1 | Ki | - | - | - | Neuraminidase | Influenza A virus | ~3000 µM
C[C@H](CO)[C@@H](OC(=O)NCCSc1ncccn1)[C@@H]1OC(C(=O)O)=C[C@H](N=C(N)N)[C@H]1NC(=O)O | IC50 | - | - | Victoria | Sialidase | Influenza B virus | 0.084 µM
CC(=O)N[C@H]1[C@H](Oc2ccc3ccccc3c2)O[C@H](OS(=O)(=O)O)[C@@H](O)[C@@H]1O | IC50 | - | fluorescence | H3N2 MEMPH/1/71 | Sialidase | Influenza A virus | 110 µM
O=C(NO)c1cc(=O)cc[nH]1 | IC50 | - | - | - | RNA-dependent RNA polymerase | Influenza A virus | 65 µM
CCC(CC)[C@H](NC(C)=O)[C@@H]1[C@H](O)[C@@H](C(=O)O)C[C@H]1N=C(N)N | IC50 | - | - | Influenza A/Shandong/09/03 (H3N2) | Influenza virus neuraminidase | Influenza A virus | 0.4 µM
CC(=O)N[C@@H]1[C@@H](N=C(N)N)C=C(C(=O)O)O[C@H]1C(=O)C(C)C | IC50 | - | fluorescence | AICHI N2 | Influenza virus sialidases | Influenza A virus | 0.025 µM
CC(=O)Nc1ccc(O[C@@H]2O[C@H](OS(=O)(=O)O)[C@@H](O)[C@H](O)[C@H]2NC(C)=O)cc1 | IC50 | - | fluorescence | H3N2 MEMPH/1/71 | Sialidase | Influenza A virus | 33 µM
COc1cccnc1C(=O)NO | IC50 | - | - | - | RNA-dependent RNA polymerase | Influenza A virus | >65 µM
CCCCCCCCCCCCC/C=C/[C@@H](O)[C@H](CO[C@@H]1O[C@H](CO)[C@H](O)[C@H](OS(=O)(=O)O)[C@H]1O)NC(=O)CCCCCCCCCCCCCCCCCCCCCCC | inhibition | 200 µM | - | H3N2 A/TOKYO/6/73 | Sialidase | Influenza A virus | 99.1%
CC(=O)N[C@H]1[C@H](OCC(O)CO)O[C@H](OS(=O)(=O)O)[C@@H](O)[C@@H]1O | IC50 | - | fluorescence | H3N2 MEMPH/1/71 | Sialidase | Influenza A virus | 19 µM
CC(C)N(C(=O)O[C@@H]([C@@H]1OC(C(=O)O)=C[C@H](N)[C@H]1NC(=O)O)[C@H](C)CO)C(C)C | IC50 | - | - | H3N2 AICHI | Sialidase | Influenza A virus | 48 µM
NC(=O)c1ncccc1O | IC50 | - | - | - | RNA-dependent RNA polymerase | Influenza A virus | >500 µM
C[C@H](CO)[C@@H](OC(N)=O)[C@@H]1OC(C(=O)O)=C[C@H](N=C(N)N)[C@H]1NC(=O)O | IC50 | - | - | H3N2 AICHI | Sialidase | Influenza A virus | 0.005 µM
O=C(NO)c1ccccn1 | IC50 | - | - | - | RNA-dependent RNA polymerase | Influenza A virus | >7500 µM
CCCCCCCCCCCCCCCCCC(=O)OC[C@@H](COP(=O)(O)OCCNCCO[C@@]1(C(=O)O)O[C@@H]([C@H](O)[C@H](O)CO)[C@H](NC(C)=O)[C@@H](O)[C@H]1F)OC(=O)CCCCCCCCCCCCCCCCC | IC50 | - | - | H1N1 A/PR/8/34 | Sialidase | Influenza A virus | 62.5 µM
CCCCCCN(CCCCCC)C(=O)O[C@@H]([C@@H]1OC(C(=O)O)=C[C@H](N)[C@H]1NC(=O)O)[C@H](C)CO | IC50 | - | - | Victoria | Sialidase | Influenza B virus | 2.2 µM
O=C(NO)c1nc2ccccc2cc1O | IC50 | - | - | - | RNA-dependent RNA polymerase | Influenza A virus | 40 µM
CCCCCCCCCCCCCCCCCC(=O)OC[C@@H](COP(=O)(O)OCCNCCO[C@@]1(C(=O)O)O[C@@H]([C@H](O)[C@H](O)CO)[C@H](NC(C)=O)[C@@H](O)[C@H]1F)OC(=O)CCCCCCCCCCCCCCCCC | IC50 | - | - | H3N2 A/AICHI/2/68 | Sialidase | Influenza A virus | 31.3 µM
CCCCCCCNC(=O)O[C@@H]([C@@H]1OC(C(=O)O)=C[C@H](N)[C@H]1NC(=O)O)[C@H](C)CO | IC50 | - | - | H3N2 AICHI | Sialidase | Influenza A virus | 6 µM

Repeating the first 2 entries:

{"smiles": "O=c1[nH]c2c(Cl)cc(Cl)cc2c(=O)n1O", "read-out": "IC50", "target": "RNA-dependent RNA polymerase", "organism": "Influenza A virus", "result": "50 µM"}
{"smiles": "O=C(O)C(=O)CC(=O)C1(Cc2ccc(Cl)cc2)CCCN(Cc2ccccc2)C1", "read-out": "IC50", "target": "Endonuclease", "organism": "Influenza B virus", "result": "1.8 µM"}

Percent inhibition refers to the dose given; in toxicity tests it is the harm to the cells. An empty or dashed field is not shown. ICn: concentration for n% inhibition.